Results of single-concentration screens

The filed quantity is “Percent Effect” (%). The controls that fix the scale are not given in the record; negative values are as filed. This is part of a subset picked to be rich in strong results.

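Phenotypic screen: M. tuberculosis growth, glucose 7H9 medium, 3 days; the read-out is not stated. Concentration: 500 µM. Direction is inferred from retests: higher values go with more growth inhibition. Of about 18,000 compounds tested this way, about 1,400 (7.9%) reached 50% or more in at least one test.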

{"smiles": "Nc1nnc(CS(=O)(=O)Cc2ccccc2)s1", "percent effect": -6.357}
{"smiles": "O=C(Nc1cccc(N2CCNC2=O)c1)C1CCCO1", "stereo": "stereo not given", "percent effect": 14.85}
{"smiles": "CCCn1cc(S(=O)(=O)N2C[C@H](C3CC3)[C@@H](N)C2)cn1", "percent effect": 5.609}
{"smiles": "Cc1ccc(-c2noc(CNS(C)(=O)=O)n2)cc1", "percent effect": 55.78}
{"smiles": "CC(C)(C)c1cc(CO)no1", "percent effect": 11.91}
{"smiles": "CC(C)Oc1ccc(S(=O)(=O)N(C)C(C)CN)cc1", "stereo": "stereo not given", "percent effect": 78.07}
{"smiles": "CC(C)CC(C)Oc1cc(CN)ccn1", "stereo": "stereo not given", "percent effect": 40.22}
{"smiles": "O=C(NC1CCCc2ccccc21)c1ccncc1", "stereo": "stereo not given", "percent effect": 73.78}
{"smiles": "CNCCCN1C(=O)c2ccccc2C1=O", "percent effect": 2.916}
{"smiles": "CCCS(=O)(=O)CC(=O)NC1CCN(CC(N)=O)CC1", "percent effect": 12.85}
{"smiles": "CC(CN)N(C)C(=O)c1ccc(Br)cc1", "stereo": "stereo not given", "percent effect": 16.47}
{"smiles": "CC(C(N)=O)n1cccn1", "stereo": "stereo not given", "percent effect": 10.48}
{"smiles": "CS(=O)(=O)N1CCC(=Cc2ccccc2)CC1", "percent effect": -12.11}
{"smiles": "O=C1NC(=O)[C@@H]2CN(Cc3ccccc3)C[C@H]12", "percent effect": 3.408}
{"smiles": "O=C(CO)NC1CCN(Cc2cc(Cl)cc(Cl)c2)CC1", "percent effect": 4.157}
{"smiles": "O=C(CC1Nc2ccccc2NC1=O)NC1CCCC1", "stereo": "stereo not given", "percent effect": 31.53}
{"smiles": "CN(CCOc1ccc(Cl)cc1)CCC(N)=O", "percent effect": 47.41}
{"smiles": "CCN1CCN(Cc2nc(-c3ccccc3)no2)CC1", "percent effect": 53.3}
{"smiles": "O=C(NCCCNCc1cccnc1)c1occc1Br", "percent effect": -5.127}
{"smiles": "CN(C)C(=O)c1ccc2c(c1)CCCN2", "percent effect": 15.31}
{"smiles": "O=C(Cn1cnnn1)Nc1ccc(SC(F)F)cc1", "percent effect": 60.9}
{"smiles": "OC1CCCn2ccnc21", "stereo": "stereo not given", "percent effect": 8.582}
{"smiles": "Cc1cnc(NC(=O)CCOC(C)C)[nH]1", "percent effect": 9.655}
{"smiles": "Cc1nn(CCC#N)c(C)c1Cl", "percent effect": 19.42}
{"smiles": "NC1CCCN(c2ccncn2)C1", "stereo": "stereo not given", "percent effect": -6.875}
{"smiles": "CN1CCN(CC2CC23CCNCC3)CC1", "stereo": "stereo not given", "percent effect": -9.359}
{"smiles": "CCCS(=O)(=O)NCCN1CCC(CO)CC1", "percent effect": 5.51}
{"smiles": "O=C(Cc1cccnc1)NCCNc1cccc(Br)c1", "percent effect": 61}
{"smiles": "CC1CC(=O)NCCN1", "stereo": "stereo not given", "percent effect": 52.48}
{"smiles": "Cc1noc(CS(=O)(=O)CC(=O)N2CCCC(C)C2)n1", "stereo": "stereo not given", "percent effect": 11.5}

For reference, 3 entries once more:

SMILES	percent effect
CC(C)Oc1ccc(S(=O)(=O)N(C)C(C)CN)cc1 (stereo not given)	78.07%
CCCS(=O)(=O)CC(=O)NC1CCN(CC(N)=O)CC1	12.85%
OC1CCCn2ccnc21 (stereo not given)	8.582%

From ChEMBL document CHEMBL3988442, “University of Dundee, Small-Polar-MMV Screening Library” (2021).